A mixed list of measured activities; the numbers were collected in NIAID ChemDB.

Shared fields: tests in culture; agent: Herpes simplex virus 1; read by: cytopathic effect; read-out: EC50

ECn is the concentration giving n% inhibition of infection, replication or growth. Neighbouring rows are from separate reports. Two numbers with a dash give a range or band. An empty or dashed field is not shown.

| smiles | cell line | strain | result |
|---|---|---|---|
| O=c1[nH]cnc2c1ncn2C/C=C(/CO)c1ccccc1 | CCL18 | - | >100 µg/mL |
| Nc1ncnc2c1ncn2C[C@@H](CO)OCP(=O)(O)O | E6SM | KOS F McIntyre | 0.63 µM |
| Nc1nc2c(ncn2C[C@]2(CO)C[C@H]2CO)c(=O)[nH]1 | VERO | TK- | ≥70 µg/mL |
| Nc1cc([C@H]2C[C@H](O)[C@@H](CO)O2)c(F)cc1F | E6SM | KOS | >400 µg/mL |
| Nc1nc2nn(CCOCP(=O)(O)O)nc2c(=O)[nH]1 | E6SM | VMW1837 (TK-) | >400 µg/mL |
| O=c1[nH]c(=O)n(COCCO)cc1[N+](=O)[O-] | PRK | - | >400 µg/mL |
| Cc1cn([C@H]2C[C@H](N=[N+]=[N-])[C@@H](CO)O2)c(=O)[nH]c1=O | PRK | KOS | >200 µg/mL |
| C/C(=C\Cn1cnc2c(=O)[nH]cnc21)CO | CCL18 | - | >100 µg/mL |
| CC1(C)C[C@H]2[C@@H](OC(=O)[C@H](O)[C@@H](NC(=O)c3ccccc3)c3ccccc3)C34COC(=O)C3(C4)C[C@@](C)(O)[C@H]2C1 | VERO | McIntyre | 4.2 µg/mL |
| CC(=O)NC(CCSC[C@H]1O[C@@H](n2ccc3c(N)ncnc32)[C@H](O)[C@@H]1O)C(=O)OC(C)C | PRK/E6SM | KOS | 100 µg/mL |
| [N-]=[N+]=N[C@H]1[C@H](O)[C@H](n2cnc3c(N)ncnc32)O[C@@H]1CO | PRK | KOS | >200 µg/mL |
| Nc1nc(OCC2CC2)c2ncn(/C=C3/C[C@@H]3CO)c2n1 | HFF | - | 6.3 µM |
| NC1=NC2C(C=CN2CC(CO)CCO)C(=O)N1 | VERO | B2006 (TK-) | >100 µg/mL |
| Nc1nc(=O)n([C@H]2C[C@H](O)[C@@H](CO)O2)cc1/C=C/Br | Primary rabbit kidney cells | KOS | 0.07 µg/mL |
| OC[C@H]1O[C@H](c2cc(I)c(F)cc2F)C[C@@H]1O | E6SM | KOS/ACV-R | >400 µg/mL |
| Nc1ccn([C@@H]2O[C@H](CO)[C@@H](O)[C@@H]2O)c(=O)n1 | PRK | KOS | 0.04 µg/mL |
| Cc1cc([C@H]2C[C@H](O)[C@@H](CO)O2)c(F)cc1F | E6SM | VMW 1837 | >400 µg/mL |
| Nc1nc(-n2c(-c3ccccc3)nc3ccc(Br)cc3c2=O)nnc1-c1cccc(Cl)c1Cl | E6SM | KOS | 48 µg/mL |
| Nc1ncnc2c1ncn2CC=C(CO)CO | CCL18 | - | >100 µg/mL |
| CCCCCCCCCCCCCC(=O)NC(C)(C)C(=O)N1C[C@@H](O)CC1C(=O)N[C@@H](CC(C)C)C(=O)N[C@@H](C)C(=O)N[C@@H](CCC(N)=O)C(=O)N[C@H](CO)CC(C)C | VERO | - | 3.5 µM |
| O=c1[nH]c(=O)n(COC(CO)CO)nc1Cc1ccc(O)cc1 | HFF | - | >100 µM |
| CCc1cn([C@H]2C[C@H](O)[C@@H](CO)O2)c(=O)[nH]c1=O | HFF | E-377 | >170 µM |
| CCCCCSc1nc(N)nc2c1ncn2/C=C1/C[C@@H]1CO | HFF | - | 49.5 µM |
| O=c1cc(/C=C/c2ccccc2O)c2ccc3occ(-c4ccc(-c5ccccc5)cc4)c3c2o1 | - | - | 250 µg/mL |
| [N-]=[N+]=NC(CBr)c1cn(CCC(CO)CO)c(=O)[nH]c1=O | HFF | E-377 (TK+) | >270 µM |
| O=c1[nH]c(=O)n(COCCO)cc1I | PRK | - | >400 µg/mL |
| O=c1[nH]c(=O)n([C@H]2C[C@H](O)[C@@H](CO)O2)cc1I | PRK | McIntyre | 0.1 µg/mL |
| CCCCCCCCCCCC(=O)NC(C)(C)C(=O)N1C[C@@H](O)CC1C(=O)N[C@@H](CC(C)C)C(=O)N[C@H](C(=O)N[C@@H](CCC(N)=O)C(=O)N[C@H](CO)CC(C)C)C(C)C | VERO | - | 2 µM |
| CN(C)c1nc2c(=O)[nH]c(N)nc2n1COCCO | PRK | - | 30 µg/mL |
| CN1[C@@H]2CC[C@H]1CC(OC(=O)C(CO)c1ccccc1)C2 | HeLa | - | 50–100 µg/mL |
| Nc1ncnc2c1ncn2[C@@H]1O[C@H](CO)[C@@H](O)[C@@H]1O | PRK | KOS | 4 µg/mL |
| Nc1nc2c(ncn2C[C@H]2C[C@@H]2CO)c(=O)[nH]1 | - | - | >100 µg/mL |
| C#CCNc1nc(N)nc2c1ncn2/C=C1/C[C@@H]1CO | HFF | - | >370 µM |
| O=c1[nH]c(=O)n(COCCO)nc1Cc1ccc(O)cc1 | HFF | - | >100 µM |
| Nc1ncnc2c1ncn2C[C@H](CO)OCP(=O)(O)O | E6SM | KOS F McIntyre | 29 µM |
| O=c1[nH]c(=O)n([C@H]2C[C@H](O)[C@@H](CO)O2)cc1/C=C\Cl | PRK | KOS | 0.7 µg/mL |
| CCCc1cn([C@H]2C[C@H](O)[C@@H](COP(=O)(O)O)O2)c(=O)[nH]c1=O | HSF | KOS | 4 µg/mL |
| Nc1nc(=O)n([C@H]2C[C@H](O)[C@@H](CO)O2)cc1/C=C\Cl | PRK | VMW1837 (TK-) | >200 µg/mL |
| Nc1nc(N)c(Br)c(OCCOCP(=O)(O)O)n1 | E6SM | KOS | 700 µM |
| CC1=C[C@H](n2cnc3c(N)ncnc32)C[C@@]1(CO)c1ccccc1 | CCL-81 | - | >56.2 µg/mL |
| Nc1nc2c(ncn2[C@@H]2C[C@H](CO)C3CC32)c(=O)[nH]1 | VERO | - | 1–10 µg/mL |
| COc1cccc(-c2ccc(C(Nc3ccccc3)N3c4ccccc4Sc4cc(O)c(CN5C(=O)c6ccccc6C5=O)cc43)cc2)c1 | - | 753166 | 7.8 µg/mL |
| CC(=O)NC1[C@H](COC[C@@H]2C(CO)O[C@@H](COC[C@@H]3C(CO)O[C@@H](O)C(NC(C)=O)[C@@H]3O)C(NC(C)=O)[C@@H]2O)OC(CO)[C@@H](O)[C@H]1O | VERO | KOS | >200 µg/mL |
| O=c1[nH]c(=O)n([C@H]2C[C@H](O)[C@@H](CO)O2)cc1I | PRK | KOS | <0.2 µg/mL |
| O=c1[nH]c(=O)n(COCCO)nc1Cc1ccc(Cl)cc1 | HFF | - | >100 µM |
| CC(N)c1cn([C@H]2C[C@H](O)[C@@H](CO)O2)c(=O)[nH]c1=O | HFF | E-377 | 1.7 µM |
| OC[C@H]1C[C@@H](n2cnc3c(Cl)ncnc32)C2CC21 | VERO | - | 0.1–1 µg/mL |
| Nc1nc2c(nnn2[C@@H]2C[C@H](CO)[C@@H](O)[C@H]2O)c(=O)[nH]1 | HEP-2 | HF | 81 µg/mL |
| O=c1[nH]c(=O)n([C@H]2C[C@H](O)[C@@H](CO)O2)cc1CCCl | HEP-2 | - | <0.03 µg/mL |
| Nc1nc(NCC2CC2)c2ncn(/C=C3/C[C@@H]3CO)c2n1 | HFF | - | >349 µM |
| COCC(=O)NC(CCSC[C@H]1O[C@@H](n2ccc3c(N)ncnc32)[C@H](O)[C@@H]1O)C(=O)OC(C)C | PRK/E6SM | KOS | 150 µg/mL |
| Nc1nc(NCC2CC2CO)c(N=O)c(=O)[nH]1 | - | - | >100 µg/mL |
| [N-]=[N+]=N[C@@H]1[C@H](O)[C@@H](CO)O[C@H]1n1ccc(N)nc1=O | PRK | KOS | ≥200 µg/mL |
| CC1(C)C[C@H]2C=C(COC(=O)[C@H](O)[C@@H](NC(=O)c3ccccc3)c3ccccc3)[C@@]3(C=O)C[C@]3(C)[C@H]2C1 | VERO | McIntyre | 7.8 µg/mL |
| Nc1ncnc2c1ncn2C[C@H]1C[C@H]1CO | - | - | >100 µg/mL |
| O=c1[nH]cnc2c1ncn2CC=C(CO)CO | CCL18 | - | >100 µg/mL |
| Nc1nc2c(ncn2CC=C(CO)CO)c(=O)[nH]1 | - | - | >100 µg/mL |
| Nc1nc(=O)n([C@@H]2O[C@H](CO)[C@@H](O)[C@@H]2F)cc1I | VERO | - | <0.01 µg/mL |
| N#CSc1cn([C@H]2C[C@H](O)[C@@H](CO)O2)c(=O)[nH]c1=O | PRK | - | 4 µg/mL |
| O=c1[nH]c(=O)n(COCCO)nc1Cc1ccccc1 | HFF | - | >100 µM |
| Nc1nc2c(ncn2C[C@@H](CF)OCP(=O)(O)O)c(=O)[nH]1 | E6SM | KOS F McIntyre | 165 µM |
| Nc1ccn([C@@H]2O[C@H](CO)[C@@H](O)[C@H]2N)c(=O)n1 | PRK | KOS | >200 µg/mL |
| C=CCOc1nc(N)nc2c1ncn2/C=C1/C[C@@H]1CO | HFF | - | >366 µM |
| CC(=O)OC[C@H]1O[C@@H](n2cc(SC#N)c(=O)[nH]c2=O)[C@H](OC(C)=O)[C@@H]1OC(C)=O | PRK | - | 40 µg/mL |
| O=c1[nH]c(=O)n(COC(CO)CO)nc1Cc1ccc(Cl)cc1 | HFF | - | >100 µM |
| CC1=CC(CO)(CO)C[C@H]1n1cnc2c(N)ncnc21 | CCL-81 | - | >100 µg/mL |
| O=c1[nH]c(=O)n([C@H]2C[C@H](O)[C@@H](CO)O2)cc1F | PRK | B2006 (TK-) | 0.2 µg/mL |
| CCOP(=O)(CCCN1CC(Cn2c(=O)n(C(=O)c3ccccc3)c(=O)c3ccccc32)N=N1)OCC | HEL | - | 17 µM |
| O=c1cc(O)ccn1COCCO | PRK | - | >400 µg/mL |
| C[C@@H](Cn1cnc2c(=O)[nH]c(N)nc21)OCP(=O)(O)O | E6SM | KOS F McIntyre | 148 µM |
| CC1(C)C[C@H]2[C@H](OC(=O)[C@H](O)[C@@H](NC(=O)c3ccccc3)c3ccccc3)C3=C(COC3=O)C[C@](C)(O)[C@H]2C1 | VERO | McIntyre | 3.4 µg/mL |
| Nc1nc(NC2CC2)c2ncn(/C=C3/C[C@@H]3CO)c2n1 | HFF | - | 63.5 µM |
| O=c1[nH]c(=O)n(COCCO)cc1F | PRK | - | >400 µg/mL |

For reference, 10 entries again:

smiles,cell line,strain,result
O=c1[nH]c(=O)n([C@H]2C[C@H](O)[C@@H](CO)O2)cc1I,PRK,KOS,<0.2 µg/mL
C#CCNc1nc(N)nc2c1ncn2/C=C1/C[C@@H]1CO,HFF,-,>370 µM
CCCc1cn([C@H]2C[C@H](O)[C@@H](COP(=O)(O)O)O2)c(=O)[nH]c1=O,HSF,KOS,4 µg/mL
O=c1cc(O)ccn1COCCO,PRK,-,>400 µg/mL
[N-]=[N+]=N[C@@H]1[C@H](O)[C@@H](CO)O[C@H]1n1ccc(N)nc1=O,PRK,KOS,≥200 µg/mL
Nc1nc(NCC2CC2CO)c(N=O)c(=O)[nH]1,-,-,>100 µg/mL
Nc1ccn([C@@H]2O[C@H](CO)[C@@H](O)[C@H]2N)c(=O)n1,PRK,KOS,>200 µg/mL
O=c1[nH]c(=O)n([C@H]2C[C@H](O)[C@@H](CO)O2)cc1CCCl,HEP-2,-,<0.03 µg/mL
O=c1[nH]c(=O)n(COCCO)nc1Cc1ccc(Cl)cc1,HFF,-,>100 µM
C=CCOc1nc(N)nc2c1ncn2/C=C1/C[C@@H]1CO,HFF,-,>366 µM